Reference: PubChem BioAssay AID504761 (Drosophila RNAi Screening Center, 2011)
In all, the deposit lists about 22,000 reagents; below is an unselected part of those with a known target gene and a result. Over the whole deposit, 116 (0.52%) got an active call. 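Calls depend on retest data that are not deposited; infection was ranked per plate without normalising between plates; the unit of the infection score is not given.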 Entries without a mark were called inactive. The numbers tell different reagents against one gene apart. Further read-outs or replicates are left out here. Not given: the amount of reagent, the time to read-out.

- Assay: 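Insect host genes that dengue virus relies on to spread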 (primary screen)
- Cell system: D.Mel-2 cells from Drosophila
- Knock-down reagent: long dsRNA against Drosophila genes
- Conditions: infection with dengue virus type 2; dose and infection time not stated
- Measured: 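Cells stained for dengue envelope protein and imaged; percent of infected cells per well on duplicate plates, ranked by infection, with stained nuclei counted for cell number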
- Scale: infection score: higher = more virus-infected cells
- Call rule: 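Low infection ranks in the two replicates (chance level up to 0.065) followed by a retest with a 1.5-fold or larger significant decrease, p below 0.05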
- Meaning of the calls: active = confirmed: knock-down lowers infection; inactive = not picked or not confirmed

no.	gene	reagent	infection score, replicate 1	infection score, replicate 2
1	jv (javelin)	1	3.75	1.99
2	jv (javelin)	2	2.35	2.25
3	sals (sarcomere length short)	1	8.77	12.1
4	sals (sarcomere length short)	2	4.72	7.16
5	sals (sarcomere length short)	3	14.1	5.49
6	l(2)03659 (lethal (2) 03659)	1	5.63	8.42
7	l(2)03659 (lethal (2) 03659)	2	2.04	4.18
8	sesB (stress-sensitive B)	1	4.67	5.28
9	sesB (stress-sensitive B)	2	38	36.3
10	CG1146	1	9.83	11.2
11	CG1146	2	2.33	2.28
12	CG13747	1	16.3	9.78
13	CG44014	1	5.99	8.79
14	CG44014	2	17.7	10.3
15	mRpS30 (mitochondrial ribosomal protein S30)	1	3.61	1.82
16	qkr58E-3 (quaking related 58E-3)	1	4.14	13.6
17	CG6497	1	2.63	0.66
18	CG6497	2	3.27	2.47
19	CG6497	3	10.1	7.83
20	HSPBAP1 (HSPB1 associated protein 1)	1	5.72	17.5
21	CG3808	1	6.99	5.99
22	PGRP-SB2 (Peptidoglycan recognition protein SB2)	1	3.21	2.9
23	wgn (wengen)	1	4.75	3.27
24	Jon99Ci (Jonah 99Ci)	1	4.73	5.71
25	Jon99Ci (Jonah 99Ci)	2	28.6	3.72
26	PIG-G (Phosphatidylinositol glycan anchor biosynthesis class G)	1	25.1	31.8
27	CG6765	1	3	0.53
28	CG6765	2	1.15	5.01
29	CG31698	1	2.16	0.77
30	CG31698	2	5.32	2.22
31	CG30394	1	7.53	4.02
32	CG30394	2	1.25	5.49
33	CG12398	1	13.9	20.5
34	CG32301	1	1.56	0.77
35	Dcr-1 (Dicer-1)	1	19	14.5
36	Dcr-1 (Dicer-1)	2	19.1	16.5
37	Vps13B (Vacuolar protein sorting 13B)	1	6.51	4.97
38	Rassf (Ras association family member)	1	3.97	9.73
39	Rassf (Ras association family member)	2	13.9	14.8
40	CG5334	1	8.97	15.5
41	del (deadlock)	1	27.2	42.8
42	CG34376	1	8.06	10.6
43	CG34376	2	9.87	2.62
44	CG34376	3	9.78	17.9
45	CG34376	4	5.2	7.96
46	CG8569	1	25.1	18.6
47	Cpr72Eb (Cuticular protein 72Eb)	1	1.34	3.49
48	CG17104	1	12.3	4.62
49	CG17104	2	12.2	15.4
50	pch2 (pachytene checkpoint 2)	1	8.99	19.3
51	Polr2G (RNA polymerase II subunit G)	1	8.71	33.8
52	Panx (Panoramix)	1	4.85	2.06
53	CG31233	1	9.58	9.79
54	Npc1b (Niemann-Pick type C-1b)	1	7.3	3.59
55	Cyp4ad1 (Cytochrome P450 4ad1)	1	16.7	5.84
56	Hk (Hyperkinetic)	1	6.98	8.62
57	Hk (Hyperkinetic)	2	2.66	5.92
58	Nepl19 (Neprilysin-like 19)	1	4.12	3.5
